Laboratory results published in paper PMC11218954 (2024).

Molecular target: m1 (UniProt P26948 22-170, biotin (NHS-LC-LC biotinylation kit))
Assay: FACS

B1: m9 (protein)
chain 1: QVQLQQWGAGLLKPSETLSLTCAVYGGSFSGYYWSWIRQPPGKGLEWIGEINHSGNTNYNPSLKSRVTISVDTSKNQFSLQLNSVTPEDTAVYYCARTRGYFDLWGRGTLVTVSS
chain 2: QPVLTQSPSVSVSPGQTASITCSGDKLGGRYASWYQQKPGQSPVLVIYQDTKRPSGIPERFSGSNSGNTATLTISGTQAMDEADYYCQSWDSSAAVFGTGTKLTVL
Binder B1 has a Kd of 36.3 nM.
